Reference: article PMC3984054 (Bioorganic & medicinal chemistry, 2013)

Test system: dividing ScN2a-cl3 cells

## Dextran
  LC50 in dividing cells (text and footnote): > 10 µM
